Experimental data published in paper PMC7459655 (Biomedicines, 2020).

Legend:
[1] = system: P. falciparum CQ-sensitive strain 3D7; assay: Malstat assay, CQ-sensitive 3D7 strain; settings: for antiplasmodial activity against 3D7 (in words): 3D7, 72 h; for SI (ratio of CC50 and IC50): CC50 Nalm-6 / IC50 3D7; for IC50 / IC90: CQ-sensitive 3D7, ring stage cultures, 72 h
[2] = system: P. falciparum CQ-resistant strain Dd2; assay: Malstat assay, CQ-resistant Dd2 strain; settings: for SI (ratio of CC50 and IC50): CC50 Nalm-6 / IC50 Dd2; for antiplasmodial activity against Dd2 compared to 3D7 (in words): Dd2, 72 h
[3] = system: P. falciparum mature gametocytes (male gametogenesis); assay: Exflagellation inhibition assay; assay type: cell-based, Plasmodium falciparum; settings: TLCK 30 µM, positive control
[4] = system: P. falciparum gametocyte-producing strain NF54 gametocytes; assay: Gametocyte toxicity assay; assay type: cell-based, Plasmodium falciparum; settings: epoxomicin 60 nM, positive control
[5] = CQ-resistant Dd2, ring stage cultures, 72 h

Compound | antiplasmodial activity against 3D7 (in words) [1] | IC50 [1] [µM] | IC90 [1] [µM] | further results
O=[As](O)(O)c1ccccc1O | lower micromolar ranges | 7.55 | 68 | SI (ratio of CC50 and IC50) [1]: >13; SI (ratio of CC50 and IC50) [2]: >12; IC50 [2, 5]: 8.27 µM; IC90 [2, 5]: 74.4 µM; antiplasmodial activity against Dd2 compared to 3D7 (in words) [2]: maintained their inhibitory activities
O=C(O)c1cccc2c1[As](=O)(O)OC2=O | inactive | > 200 | > 200 | –
CC(C)(C)c1cc2c(c(C(C)(C)C)c1)[As](=O)(O)OC2=O | higher micromolar ranges | 45.6 | – | –
CC(=O)O[C@@H](C)C(=O)Nc1ccccc1[As](=O)(O)O | inactive | – | – | –
Tosyl-L-lysyl-chloromethane hydrochloride | – | – | – | reduction of the numbers of exflagellation centers [3]: 96%
c1ccc([As]23(OCCO2)OCCO3)cc1 | lower micromolar ranges | 7.64 | 68.8 | SI (ratio of CC50 and IC50) [1]: >13; SI (ratio of CC50 and IC50) [2]: >3; IC50 [2, 5]: 34.9 µM; antiplasmodial activity against Dd2 compared to 3D7 (in words) [2]: reduced antiplasmodial activities
epoxomicin | – | – | – | effect on gametocytes (in words) [4]: complete elimination of gametocytes
